# Measured values published in ChEMBL document CHEMBL1150726, “New macrocyclic trichothecenes from Baccharis megapotamica” (1987).
# What was measured:
# P388 [1] = assay: In vivo antitumor activity against mouse P388 cells at 5 mg/kg relative to control
# P388 [2] = assay: In vivo antitumor activity against mouse P388 cells at 1 mg/kg relative to control
# P388 [3] = assay: In vivo antitumor activity against mouse P388 cells at 0.62 mg/kg relative to control
# P388 [4] = assay: In vivo antitumor activity against mouse P388 cells at 0.8 mg/kg relative to control
smiles,measurement,setting,value
CC1=C[C@H]2O[C@@H]3C[C@H]4OC(=O)/C=C\C=C\[C@H]([C@H](C)O)OCC[C@@H](C)[C@H](O)C(=O)OC[C@@]2(C[C@H]1O)[C@]4(C)[C@@]31CO1,T/C,P388 [1],250%
CC1=C[C@H]2O[C@@H]3C[C@H]4OC(=O)/C=C\C=C\[C@H]([C@H](C)O)OC[C@H](O)[C@@H](C)CC(=O)OC[C@@]2(C[C@H]1O)[C@]4(C)[C@@]31CO1,T/C,P388 [2],203%
CC1=C[C@H]2O[C@@H]3C[C@H]4OC(=O)/C=C\C=C\[C@H]([C@@H](C)O)OCC[C@@H](C)[C@H](O)C(=O)OC[C@@]2(C[C@H]1O)[C@]4(C)[C@@]31CO1,T/C,P388 [3],196%
CC1=C[C@H]2O[C@@H]3C[C@H]4OC(=O)/C=C\C=C\[C@H]([C@@H](C)O)OC[C@H](O)[C@@H](C)CC(=O)OC[C@@]2(C[C@H]1O)[C@]4(C)[C@@]31CO1,T/C,P388 [4],175%
